Reference: publication PMC3445454, “Broad and Cross-Clade CD4^+ T-Cell Responses Elicited by a DNA Vaccine Encoding Highly Conserved and Promiscuous HIV-1 M-Group Consensus Peptides” (PLoS ONE, 2012)
pIC50: −log10 of the molar value.

Sequences of proteins named here, by UniProt entry; tags and fusion partners are left off. Residues count along the entry.
UniProt P01920, 33-261 with the stated changes limits assumed: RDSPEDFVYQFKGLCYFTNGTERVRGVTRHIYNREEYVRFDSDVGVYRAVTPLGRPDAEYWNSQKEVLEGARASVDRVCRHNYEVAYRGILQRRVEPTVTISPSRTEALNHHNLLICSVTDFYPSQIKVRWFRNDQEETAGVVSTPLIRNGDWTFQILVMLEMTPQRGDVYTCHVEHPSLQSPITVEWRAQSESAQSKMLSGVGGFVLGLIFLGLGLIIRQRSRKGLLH

What was measured:
Test in all cases: biochemical
[1] = molecular target: HLA-DR DRB1*03:01 (Homo sapiens, UniProt P01903+P01911, A100K/A102G/A103R/A169T/F55Y/I96L/K41T/L162R/M171V/P40S/Q125H/Q178H/Q39Y/R42S/S66N/T106N/T262R/W38E/Y61H); type: binding
[2] = molecular target: HLA-DR DRB1*04:01 (Homo sapiens, UniProt P01903+P01911, A100K/A169T/F76Y/I96L/K127E/L162R/M171V/N62H/P40V/Q125Y/R42H/S133A/S149N/S66Y/V115G/V209L/W38E); type: binding
[3] = molecular target: HLA-DR DRB1*04:05 (Homo sapiens, UniProt P01903+P01911, A100R/A169T/D86S/F76Y/I96L/K127E/L162R/M171V/N62H/P40V/Q125Y/R42H/S133A/S149N/S66Y/V115G/V209L/W38E); type: binding
[4] = molecular target: HLA-DR DRB1*07:01 (Homo sapiens, UniProt P01903+P01911, A100R/A102G/A103Q/D57E/D86V/E43K/F76Y/K127E/L162R/M171V/P40G/Q125H/Q99D/R33Q/R42Y/R54Q/S133A/S66F/T210M/V115G/Y107V/Y59L/Y89S); type: binding
[5] = molecular target: HLA-DR DRB1*08:02 (Homo sapiens, UniProt P01903+P01911, A100R/A103L/A169T/F76Y/H45Y/I96F/K41T/L162R/M171V/P40S/Q125H/Q178H/Q39Y/Q99D/R218S/R42G/S66Y/V115G/W38E); type: binding
[6] = molecular target: HLA-DR DRB1*11:01 (Homo sapiens, UniProt P01903+P01911, A100R/A169T/A87E/I96F/K41T/L162R/M171V/P40S/Q125H/Q178H/Q39Y/Q99D/R42S/S66Y/T262R/V115G/W38E); type: binding
[7] = molecular target: HLA-DR DRB1*13:02 (Homo sapiens, UniProt P01903+P01911, A100E/A169T/K41T/L162R/M171V/P40S/Q125H/Q178H/Q39Y/Q99D/R42S/S66N/T262R/V115G/W38E/Y61H); type: binding
[8] = molecular target: HLA-DR DRB1*16:02 (Homo sapiens, UniProt P01903+P01911, A100R/F76Y/I96L/Q99D/V115G); type: binding
[9] = molecular target: HLA-DQ DQA1*01:04/DQB1*05:03 (Homo sapiens, UniProt P01909+P01920, A157S/A221T/A45G/A70V/C70R/D25G/E106S/E118A/E183D/E77G/F83G/G63E/H151Q/H199R/H252R/H253Q/I129T/I235V/I88M/INS77G/K197Q/L107V/L117V/L119Y/L178F/L71W/L74F/L85Q/L91A/L98M/M46L/N214S/P87R/Q116E/Q256R/Q57E/Q76K/R102G/R240Q/R75S/R78G/S102Y/S185I/S41F/S97I/T103A/T109R/T121G/T122I/T172A/T86R/V148I/V68A/V73E/Y34C/Y58G/Y62H)
[10] = molecular target: HLA-DR DRB1*01:01 (Homo sapiens, UniProt P01903+P01911, A100R/D57E/F55L/F60I/F76Y/I96L/L162R/M171V/P40L/Q125E/R42F/V115G/Y59C); type: binding
[11] = molecular target: HLA-DR DRB1*12:01 (Homo sapiens, UniProt P01903+P01911, A100R/A169T/D57E/D86V/F55L/H45Y/K41T/L162R/M171V/P40S/Q125H/Q178H/Q39Y/Q99D/R42G/S66L/T262R/V114A/V67L/W38E/Y59H/Y61H/Y89S); type: binding

| SMILES | pIC50 [1] | pIC50 [2] | pIC50 [3] | pIC50 [4] | pIC50 [5] | pIC50 [6] | pIC50 [7] | pIC50 [8] | pIC50 [9] | pIC50 [10] | pIC50 [11] |
| --- | --- | --- | --- | --- | --- | --- | --- | --- | --- | --- | --- |
| CC[C@H](C)[C@H](NC(=O)[C@H](CCC(=O)O)NC(=O)CN)C(=O)N[C@@H](Cc1ccc(O)cc1)C(=O)N[C@@H](CCCCN)C(=O)N[C@@H](CCCNC(=N)N)C(=O)N[C@@H](Cc1c[nH]c2ccccc12)C(=O)N[C@H](C(=O)N[C@H](C(=O)N[C@@H](CC(C)C)C(=O)NCC(=O)N[C@@H](CC(C)C)C(=O)N[C@@H](CC(N)=O)C(=O)N[C@@H](CCCCN)C(=O)N[C@H](C(=O)N[C@H](C(=O)N[C@@H](CCCNC(=N)N)C(=O)N[C@@H](CCSC)C(=O)N[C@@H](Cc1ccc(O)cc1)C(N)=O)C(C)C)[C@@H](C)CC)[C@@H](C)CC)[C@@H](C)CC [p24(127-145)] | 7.28 | 7.18 | 6.54 | 5.66 | 7.46 | 6.77 | 7.18 | 7.23 | 5.29 |  |  |
| CSCC[C@H](NC(=O)[C@@H]1CCCN1C(=O)[C@H](CCCNC(=N)N)NC(=O)[C@H](CC(C)C)NC(=O)[C@@H]1CCCN1C(=O)[C@@H](NC(=O)[C@H](CCC(N)=O)NC(=O)[C@@H]1CCCN1C(=O)[C@H](CCCNC(=N)N)NC(=O)[C@@H](NC(=O)[C@@H]1CCCN1C(=O)[C@H](Cc1ccccc1)NC(=O)CN)C(C)C)C(C)C)C(=O)N[C@H](C(=O)N[C@@H](Cc1ccc(O)cc1)C(=O)N[C@@H](CCCCN)C(=O)NCC(=O)N[C@@H](C)C(=O)N[C@@H](Cc1ccccc1)C(=O)N[C@@H](CC(=O)O)C(=O)N[C@@H](CC(C)C)C(N)=O)[C@@H](C)O [nef(67-87)] | 5.32 | 7.01 | 5.88 | 5.40 | 7.34 | 6.17 | 5.47 | 5.76 | 4.87 | 6.47 | 6.82 |
| CC[C@H](C)[C@H](NC(=O)[C@@H](NC(=O)[C@H](CCC(=O)O)NC(=O)[C@@H]1CCCN1C(=O)[C@@H](N)CO)C(C)C)C(=O)N1CCC[C@H]1C(=O)N[C@@H](CCSC)C(=O)N[C@@H](Cc1ccccc1)C(=O)N[C@@H](CO)C(=O)N[C@@H](C)C(=O)N[C@@H](CC(C)C)C(=O)N[C@@H](CO)C(=O)N[C@@H](CCC(=O)O)C(=O)NCC(=O)N[C@@H](C)C(=O)N[C@H](C(N)=O)[C@@H](C)O [p24(33-48)] |  |  |  |  |  |  |  |  | 5.20 |  |  |
